By inhibition is commonly meant the relative decrease from the control value, in per cent.

This note sets out measurements from PubChem BioAssay AID1800 (The Scripps Research Institute Molecular Screening Center, 2009).

The entries are a selection whose mix differs from that of the whole data set. Calls of active or inactive are those of the source.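 The calls were made as follows: active = inhibition above the mean of all tested compounds plus 3 SD, set per campaign (cut at about 35% in these data); inactive = the rest.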

In the assay the test system is Hepatitis C virus NS3 helicase. Kind of assay: inhibitors of HCV NS3 helicase, primary screen, biochemical, Cy5 molecular beacon fluorescence (AID 1800).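 Also: 0% = DMSO wells and 100% = thioflavine S control wells.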 The note with it: NS3 helicase DNA unwinding, at 10.9 µM, hits give high values. The essentials: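 Test system: hepatitis C virus NS3 helicase domain fragment enzyme. Also added: annealed dual-labelled DNA beacon duplex, ATP-started. Timing: 60 min unwinding reaction at 25 °C after ATP addition. Technique: Cy5 fluorescence. Measure: % inhibition of unwinding.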
Consider `CCOC(=O)N1CCC(Nc2cccc(C)c2)CC1`, for which the inhibition is inactive: 3.17%. The result for `COc1cc(C(=O)NCC2(N(C)C)CCCCC2)ccc1OC(F)F` reads inactive: -1.83%; that for `Cc1ccc(OCC(C)C)c(CN(CCCl)CCCl)c1`, inactive: -3.76%; that for `O=C(NCC1(N2CCCCC2)CCCCC1)c1ccc(F)cc1`, inactive: -6.96%. For the molecule `CCOC(=O)N1CCC(Nc2ccc(F)cc2)CC1`, the inhibition was inactive: 24.6%. The figure for `COc1ccc(NC2CCN(CCc3ccccc3)CC2)c(OC)c1` is inactive: -12.2%. The result for `CCOc1ccc(C)cc1CN(CCCl)CCCl` reads inactive: 3.26%. As to `N#CC1(Nc2ccccc2)CCN(Cc2ccccc2)CC1`, the inhibition is inactive: 5.58%. The result for `O=C(OC1CN2CCC1CC2)C1c2ccccc2Oc2ccccc21` (centres undefined) reads inactive: -6.69%; that for `CCOC(=O)N1CCC(Nc2ccc(OC)cc2)CC1`, inactive: -0.98%; that for `Cc1cc(C)cc(N(C(=O)c2ccccc2)C2CCN(C(=O)OC(C)(C)C)CC2)c1`, inactive: 10.6%. With `O=C(NCC1(N2CCOCC2)CCCCC1)c1cc2ccccc2o1`, the inhibition is inactive: 1.74%. With `CSc1ccccc1C(=O)NCC1(N2CCCCC2)CCCCC1`, the inhibition was inactive: -28.8%. The result for `COc1ccc(C(=O)NCC2(N3CCCCC3)CCCCC2)cc1` reads inactive: -0.67%; that for `COc1ccc(C(=O)NCC2(N3CCCCC3)CCCCC2)c(OC)c1OC`, inactive: 4.97%. The figure for `CC(C)(C)OC(=O)N1CCC(N(C(=O)c2ccccc2)c2ccc(F)cc2)CC1` is inactive: -3.13%; for `O=C(NCC1(N2CCCCC2)CCCCC1)c1ccc(=O)[nH]c1` it is inactive: 4.22%.

As for `CCCOc1ccc(C(=O)NCC2(N(C)C)CCCCC2)cc1OC`, the inhibition was inactive: 5.46%.

For `CN1CCC(Nc2cccc(F)c2)CC1`, the inhibition was inactive: 4.17%. For the molecule `COc1cc(OC)c(C(=O)NCC2(N(C)C)CCCCC2)cc1OC`, the inhibition is inactive: 7.13%. The result for `CC(C)c1ccc(NC2CCN(C(=O)OC(C)(C)C)CC2)cc1` reads inactive: -7.35%; that for `COc1ccc(CN(CCCl)CCCl)cc1Cl`, inactive: -2.67%; that for `CN(C)c1cccc(C(=O)NCC2(N3CCCCC3)CCCCC2)c1`, inactive: 1.72%.

For the molecule `O=C(NCC1(N2CCOCC2)CCCCC1)c1cc(=O)[nH]c2ccccc12`, the inhibition was inactive: -3.63%. Turning to `COc1cc(C(=O)NCC2(N3CCCCC3)CCCCC2)ccc1OC(F)F`, the inhibition was inactive: -17.1%. The result for `COc1ccc(NC2CCN(C(=O)OC(C)(C)C)CC2)cc1` reads inactive: 29.7%. With `CN1CCN(CCOC(=O)C(O)(c2ccccc2)c2ccccc2)CC1`, the inhibition is inactive: -5.04%. The result for `O=C(NCC1(N2CCCCC2)CCCCC1)c1cccc(C(F)(F)F)c1` reads inactive: 1.8%. The figure for `CCN1CCC(Nc2ccc(Cl)cc2)CC1` is inactive: 4.34%. As for `N#CC1(Nc2ccccc2)CCN(CCc2ccccc2)CC1`, the inhibition was inactive: 1.98%. Take `O=C(NCC1(N2CCCCC2)CCCCC1)c1cccc([N+](=O)[O-])c1`: the inhibition is inactive: -0.51%.

Consider `O=C(NCC1(N2CCCCC2)CCCCC1)c1ccc(OC(F)F)cc1`, for which the inhibition is inactive: -23.8%. The figure for `CN(C)C1(CNC(=O)c2cccc(C#N)c2)CCCCC1` is inactive: 1.32%; for `c1ccc(CN2CCC(Nc3ccccc3)CC2)cc1` it is inactive: -2.08%; for `CCCN1CCC(Nc2cc(OC)cc(OC)c2)CC1` it is inactive: 0.87%. The figure for `N#Cc1ccc(C(=O)NCC2(N3CCCCC3)CCCCC2)cc1` is inactive: 2.22%.

On to `CC(C)(C)OC(=O)N1CCC(N(C(=O)c2ccccc2)c2ccc(Cl)cc2)CC1`, for which the inhibition is inactive: -12.5%.

Consider `O=C(OC1CN2CCC1CC2)C1c2ccccc2C=Cc2ccccc21` (centres undefined), for which the inhibition is inactive: -4.82%.

Turning to `CCOC(=O)N1CCC(Nc2ccc(C)cc2)CC1`, the inhibition is inactive: 5.85%. The figure for `N/C(=N\O)c1c(N)no[n+]1[O-]` is inactive: 6.06%; for `COc1ccc(C(=O)NCC2(N3CCOCC3)CCCCC2)cc1OC` it is inactive: -3.59%. The result for `CN1CCC(Nc2ccc(Cl)cc2)CC1` reads inactive: -1.72%; that for `CCCOc1ccc(C)cc1CN(CCCl)CCCl`, inactive: -13.1%; that for `COc1cccc(C(=O)N(c2cc(C)cc(C)c2)C2CCN(C(=O)OC(C)(C)C)CC2)c1`, inactive: -8.64%. The result for `COc1cc(OC)cc(C(=O)NCC2(N3CCOCC3)CCCCC2)c1` reads inactive: 3.42%. For `CCC(CO)(C(=O)OC1CN2CCC1CC2)c1ccccc1` (centres undefined), the inhibition is inactive: 4.16%. The result for `CC(C)(C)OC(=O)N1CCC(Nc2ccccc2)CC1` reads inactive: -0.46%; that for `O=C(O)C1(Nc2ccccc2)CCN(Cc2ccccc2)CC1`, inactive: -7.64%. The figure for `CCCOc1ccc(C(=O)NCC2(N(C)C)CCCCC2)cc1` is inactive: -4.85%.

For the molecule `CCOc1ncccc1C(=O)NCC1(N2CCOCC2)CCCCC1`, the inhibition was inactive: 2.43%. The result for `CN1CCC(Nc2ccc(F)c(Cl)c2)CC1` reads inactive: 2.38%; that for `CN(C)c1ccc(C(=O)NCC2(N3CCCCC3)CCCCC2)cc1`, inactive: -10.4%. The result for `CCN1CCC(Nc2cccc(F)c2)CC1` reads inactive: 4.22%; that for `COc1cc(OC)cc(C(=O)NCC2(N3CCCCC3)CCCCC2)c1`, inactive: -5.44%.
